Columns and labels:
mAb 9G3.2 = type: binding, mouse; conditions: conservative estimate, 30% variation in signal
mAb AMA9G3 = type: binding, mouse; conditions: lateral flow, either hapten as test line
[1] = system: mAbs of the instant disclosure; assay: assays herein described using the mAbs, lower limit of detection; type: binding; conditions: generally

| Compound | limit of detection (LOD), mAb 9G3.2 assay (mAb 9G3.2) | limit of detection (mAb AMA9G3) | lower limit of detection (LOD) [1] |
| --- | --- | --- | --- |
| CC[C@H](C)[C@@H]1NC(=O)CNC(=O)[C@@H]2Cc3c([nH]c4cc(O)ccc34)[S+]([O-])C[C@@H](NC(=O)CNC1=O)C(=O)N[C@@H](CC(N)=O)C(=O)N1C[C@H](O)C[C@H]1C(=O)N[C@@H]([C@@H](C)[C@@H](O)CO)C(=O)N2 (stereo in doubt) [α-amanitin] | 1 ng/mL | around 1 ng/mL | about 1 ng/mL |
| γ-amanitin | 1 ng/mL | around 1 ng/mL | 1 ng/mL |
| β-amanitin |  | around 30 ng/mL | about 5 ng/mL |
